Data on 1 compound can be found in ChEMBL document CHEMBL1143243, “Design, synthesis, evaluation, and crystallographic-based structural studies of HIV-1 protease inhibitors with reduced response to the V82A mutation” (J Med Chem, 2008).

The chains behind the UniProt entries cited, without tags or fusion partners.
UniProt Q72874, entry or part of it V82A: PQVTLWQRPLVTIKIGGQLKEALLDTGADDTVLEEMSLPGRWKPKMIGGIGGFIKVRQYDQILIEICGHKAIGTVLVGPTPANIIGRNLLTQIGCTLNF

In the experiment the target is Human immunodeficiency virus type 1 protease (Human immunodeficiency virus 1, UniProt Q72874, V82A). The experiment in a line: Binding affinity to HIV1 protease V82A mutant.

Consider `CC(C)[C@H](NC(=O)N(C)Cc1ccccn1)C(=O)N[C@@H](Cc1ccccc1)[C@H](O)[C@@H](O)[C@H](CC1CCCCC1)NC(=O)[C@@H](NC(=O)N(C)Cc1ccccn1)C(C)C`, for which the Ki (in general, a measure of affinity in units of concentration, obtained from inhibition or displacement) worked out at 14 nM.
